For this test, the target named is HIV-1 Env (JR-FL) (HIV-1 JR-FL) (UniProt P20871). The test can be described thus: cell-based or functional assay.

“CD4 CAR (from UniProt P01730 26-208; P10747 114-220; P20963 52-163) (receptor)” yielded an IFN-γ secretion at the lowest Env expression level (HeLa-Tet-Off, 20 ng/ml Dox) of 30%.

The record behind these values is patent US20170267739A1.
